Experimental data published in US20070059799A1.

Target: HLA-A*0201 (Human)

For HBV ENV 244 peptide … (11-mer), the binding affinity ratio (IC50 of standard peptide / IC50 of test peptide) was 0.0002.
